## Fitness effects across NS2B and the NS3 protease domain of Zika virus

Values reported by Ni et al. 2025 (doi:10.1038/s41467-025-63602-z).

The scanned region of Zika virus MR766 is shown below (positions 1-308): NS2B is 2-131, NS3 begins at position 132.
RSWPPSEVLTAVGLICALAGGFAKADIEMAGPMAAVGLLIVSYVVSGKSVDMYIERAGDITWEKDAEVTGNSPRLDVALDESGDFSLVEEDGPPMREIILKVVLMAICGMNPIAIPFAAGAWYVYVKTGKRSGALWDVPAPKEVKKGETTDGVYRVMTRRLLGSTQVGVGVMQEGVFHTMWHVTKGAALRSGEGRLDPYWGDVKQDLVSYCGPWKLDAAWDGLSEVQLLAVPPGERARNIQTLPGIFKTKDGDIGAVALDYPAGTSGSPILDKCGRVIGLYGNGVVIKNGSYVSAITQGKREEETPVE

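Pools of virus carrying all single amino acid changes were selected for growth in Huh-7.5 cells. The effect is the change in frequency of a mutant, normalised to wild type, as a mean of three replicate libraries (two for positions 207-308). The study looked for pockets that tolerate few changes, as a guide for inhibitor design.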

Values are log2 effects on growth: 0 is wild type, lower means poorer growth. Each line gives the wild-type residue and site, then new residues with their values. Position 1 still belongs to NS2A. In the paper, -1 or higher counts as tolerated.

T265: * -4.79; A -4.98; C -3.33; D -3.08; E -3.20; F -3.89; G -4.50; H -3.76; I -3.73; K -4.15; L -5.43; M -4.34; N -4.53; P -5.35; Q -2.96; R -5.46; S 0.37; V -4.04; W -3.27; Y -3.03
S266: * -7.97; A -5.60; C -5.27; D -5.34; E -5.50; F -5.61; G -5.83; H -4.81; I -5.06; K -5.23; L -4.44; M -4.85; N -5.18; P -5.45; Q -4.77; R -6.25; T -4.83; V -6.21; W -5.65; Y -5.51
G267: * -7.71; A -6.60; C -5.92; D -5.96; E -5.33; F -5.78; H -5.66; I -5.57; K -4.94; L -7.00; M -4.84; N -5.57; P -5.76; Q -4.76; R -5.32; S -6.81; T -5.87; V -7.06; W -5.01; Y -5.41
S268: * -6.66; A -5.65; C -5.19; D -4.87; E -4.33; F -4.69; G -4.22; H -5.19; I -4.43; K -3.21; L -6.31; M -4.08; N -4.43; P -5.12; Q -4.11; R -5.82; T -6.13; V -5.32; W -4.87; Y -5.75
P269: * -6.62; A -5.68; C -4.73; D -4.32; E -4.60; F -4.51; G -5.67; H -4.89; I -4.34; K -4.71; L -5.86; M -4.33; N -4.60; Q -5.80; R -5.94; S -5.97; T -6.20; V -5.81; W -4.52; Y -5.00
I270: * -6.07; A -4.75; C -4.07; D -3.21; E -3.97; F -4.08; G -5.37; H -3.10; K -4.29; L -3.99; M -4.75; N -4.45; P -5.28; Q -3.60; R -5.66; S -5.68; T -5.49; V -0.58; W -4.44; Y -3.16
L271: * -6.00; A -4.85; C -5.08; D -3.42; E -4.37; F -4.91; G -5.38; H -4.71; I -4.22; K -3.88; M -1.52; N -3.32; P -3.39; Q -3.13; R -5.60; S -5.73; T -4.73; V -1.35; W -4.12; Y -4.43
D272: * -5.11; A -4.39; C -2.82; E -4.05; F -4.31; G -2.00; H -3.77; I -3.92; K -3.02; L -4.59; M -3.61; N -1.37; P -3.92; Q -3.39; R -5.00; S -3.31; T -4.23; V -4.63; W -2.88; Y -3.84
K273: * -6.07; A -1.43; C -1.35; D -3.69; E -2.19; F -2.81; G -2.04; H -1.34; I -3.03; L -2.63; M -2.47; N -3.15; P -0.96; Q -0.82; R -0.80; S -1.55; T -2.61; V -1.13; W -3.56; Y -2.74
C274: * -6.88; A -0.26; D -2.98; E -4.12; F -0.38; G -1.01; H -1.07; I 0.68; K -3.16; L 0.91; M 1.16; N -0.04; P -5.31; Q 0.29; R -1.40; S -0.44; T -0.65; V -0.63; W -2.88; Y -2.08
G275: * -6.85; A -0.53; C -1.52; D -2.01; E -0.81; F -3.99; H -1.21; I -3.78; K -4.08; L -5.59; M -4.40; N -1.90; P -4.66; Q -3.54; R -4.01; S -0.52; T -4.86; V -5.54; W -3.94; Y -3.48
R276: * -7.20; A -2.00; C -1.97; D -4.48; E -3.90; F -5.32; G -3.77; H -1.77; I -5.33; K -2.12; L -3.16; M -3.26; N -1.85; P -5.77; Q -3.58; S -2.76; T -5.77; V -6.02; W -5.15; Y -5.43
V277: * -6.57; A -5.91; C -1.26; D -3.95; E -5.00; F -3.96; G -5.16; H -3.91; I -3.48; K -4.74; L -6.48; M -3.79; N -3.54; P -5.74; Q -4.85; R -5.79; S -5.97; T -5.08; W -4.31; Y -4.23

Extract of 31 entries:

| mutation | log2 effect |
|---|---|
| R276A | -2.00 |
| V277M | -3.79 |
| S266F | -5.61 |
| I270* | -6.07 |
| I270V | -0.58 |
| R276C | -1.97 |
| I270W | -4.44 |
| S268T | -6.13 |
| R276Y | -5.43 |
| R276I | -5.33 |
| S266W | -5.65 |
| V277F | -3.96 |
| C274K | -3.16 |
| I270G | -5.37 |
| V277P | -5.74 |
| T265Y | -3.03 |
| S266* | -7.97 |
| G267Y | -5.41 |
| I270H | -3.10 |
| T265D | -3.08 |
| T265A | -4.98 |
| S266R | -6.25 |
| S268H | -5.19 |
| K273G | -2.04 |
| S268W | -4.87 |
| P269R | -5.94 |
| S266D | -5.34 |
| I270Q | -3.60 |
| R276D | -4.48 |
| C274R | -1.40 |
| G275Q | -3.54 |

Six mutants with high scores were retested singly and none clearly outgrew wild type, so positive values are not proof of better growth. Positions 1-103, 104-206 and 207-308 were made and measured as separate libraries. Stop codons (*) centre on -7 and mark the level of dead virus.